Test results published in the supplement of paper PMC9931576.
Human monoclonal antibodies against the spike receptor-binding domain (heavy:light variable regions). IC50 against pseudoviruses bearing the spike of naturally observed variants; lower = stronger; >10 µg/ml means not reached at the top dose. No active / inactive call. The stated detection limit is 0.0005 µg/ml; values near or below 0.001 µg/ml lie at the floor of the assay.

B1: BD-821 (protein)
chain 1: ELQLVQSGAEVKKPGESLKISCKYSGNISPNFWIGWVRQMAGKGLEWMGIIYPDDSDSRYSPSFQGQVIISADKSITTALLHWSSLKVSDTAKYYCVYGSGSPSNWFHPWGQGTLVTVSS
chain 2: EVVMTQSPATLSVSPGERATLSCRASQSVRYNLAWYQQKPGQAPRLLIYDASTRATGIPGRFSGSGSGTEFTLTISSLQSEDFAVYYCQQYDNWPPWTFGQGTKVEIK
B2: BD55-1962 (protein)
chain 1: QVQLVQSGAEVKKPGSSVKVSCTASGDSFSSYAITWVRQAPGQGLEWMGRIIPILGIANYAQKFQGRVTLTADKSAGTAYMELSSLRSDDTAVYYCASGYDFHFDYWGQGTLVTVYS
chain 2: QSALTQPASVSGSPGQSITISCTGTSSDVGDYKYVSWYQQHAGKAPKLMIHDVSKRPSGVSSRFSGSKSGNTASLTISGLQAEDEADYYCSSYTSSSSWVFGGGTKLTVL
B3: BD-833 (protein)
chain 1: QVQLQESGPGLVQPSQALSLTCTVSGASISNHNYYWSWIRQHPGKGLEWIGFIYYGVNTNYSPSLKSRATISVDTSKNQFSLKLSSLTAADTAVYYCARWETYYPLDAFDIWGQGTMVTVSS
chain 2: QSALTQPASVSGSPGQSITISCTGTSSDVGGYNYVSWYQQHPGKAPKLVVFDVARRPSGVSNRFSGSKSGNTASLTISGLQAEDEADYFCSSYATSNTVLFGGGTKLTVL
B4: BD-835 (protein)
chain 1: QVQLVQSGAEVKKPGSSVKVSCKTSGDNFSRFAINWVRQAPGQGLEWMGRIIPLFGNANYAQKFQGRVSMTADKSTSTAYMDLSSLRSEDTAIYYCARSEFFSDSRGYFFDNWGQGTLVTVSS
chain 2: EIVLTQSPGTLSLSPGERATLSCRASQSLSSSYLAWYQQKPGQAPRLLIYGASIRATGIPDRFSGSGSGTDFTLTISRLEPEDFAVYYCQQYHGSPRTFGQGTKVEVK
B5: BD-614 (protein)
chain 1: QVQLVESGGGLVQPGGSLRLSCAASGLIVSSNYMSWVRQAPGEGLEWVSVIYSGGSTYYADSVKGRFTISRDTSKNTLYLQMNSLRAEDTAVYYCARARIYTYGPDYWGQGTLVTVSS
chain 2: not shown
B6: BD-837 (protein)
chain 1: QMQLVQSGPEVKKPGTSVKISCKASGFTFDISAVQWVRQARGQRLEWMGWVVVGSGNTDYAQKFQERVTITRDMSTNTAYMELSSLRVDDTAAYFCAAPHCNKTNCYDGFDIWGQGTVVTVSP
chain 2: EFVLTQSPGTLSLSPGERPTLSCRASQNIRSSYLAWYQQKPGQAPRLLIYSASRRATGIPDRFSGSGSGTDFTLTISRLDPEDFAVYYCQQYGSSPWTFGQGTKVEV
B7: BD-846 (protein)
chain 1: EVQLLQSGGGLVQPGGSLRLSCGASGITFSNHAMNWVRQAPGKGLEWVSIISGSGDNAYYSDSVKGRFTISRDNSKNTLYLQMNSLRVEDTAVYYCARDNRVSTYFTYFGAFDIWGQGTRVTVSS
chain 2: SYVLTQPPSVSVAPGQTARITCGGDNIGSKNVHWYQQKPGQAPILVVYDDTDRPSVIPERFSGSNSGNTATLTISRVEAGDEADYYCQVWDSDSDPPIGGGTKLTVL

These binders were tested against SARS-CoV-2 Omicron BA.1 spike pseudovirus (assay: pseudovirus neutralization IC50; higher = weaker neutralization).
Description: (§1)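 Single-round VSV luciferase pseudovirus mixed with antibody dilutions for 1 h and put on Huh-7 cells for about a day; IC50 from the dose curve.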

| Binder | pseudovirus neutralization IC50 [mg/L] |
| --- | --- |
| B1 | > 10 |
| B2 | 1.2 |
| B3 | > 10 |
| B4 | > 10 |
| B5 | 0.0375 |
| B6 | 0.00082 |
| B7 | > 10 |

The binders below were run against SARS-CoV-2 Omicron BA.2 spike pseudovirus in the same assay as above.
Description: as §1

| Binder | pseudovirus neutralization IC50 [mg/L] |
| --- | --- |
| B1 | > 10 |
| B2 | 1.35 |
| B3 | > 10 |
| B4 | > 10 |
| B5 | 0.0278 |
| B6 | 0.00083 |
| B7 | > 10 |

Each binder was assayed against SARS-CoV-2 Omicron BA.2.75 spike pseudovirus in the same assay as above.
Description: as §1

| Binder | pseudovirus neutralization IC50 [mg/L] |
| --- | --- |
| B1 | > 10 |
| B2 | 1.79 |
| B3 | > 10 |
| B4 | > 10 |
| B5 | 3.07 |
| B6 | 0.00031 |
| B7 | > 10 |

These binders were tested against SARS-CoV-2 Omicron BA.5 spike pseudovirus in the same assay as above.
Description: as §1

| Binder | pseudovirus neutralization IC50 [mg/L] |
| --- | --- |
| B1 | > 10 |
| B2 | 2.24 |
| B3 | > 10 |
| B4 | > 10 |
| B5 | 0.0312 |
| B6 | 0.00954 |
| B7 | > 10 |

These binders were tested against SARS-CoV-2 Omicron BQ.1.1 spike pseudovirus in the same assay as above.
Description: as §1

| Binder | pseudovirus neutralization IC50 [mg/L] |
| --- | --- |
| B1 | > 10 |
| B2 | > 10 |
| B3 | > 10 |
| B4 | > 10 |
| B5 | 1.95 |
| B6 | 1.04 |
| B7 | > 10 |

These binders were tested against SARS-CoV-2 Omicron XBB spike pseudovirus in the same assay as above.
Description: as §1

| Binder | pseudovirus neutralization IC50 [mg/L] |
| --- | --- |
| B1 | > 10 |
| B2 | > 10 |
| B3 | > 10 |
| B4 | > 10 |
| B5 | 4.43 |
| B6 | > 10 |
| B7 | > 10 |

These binders were tested against SARS-CoV-2 early D614G spike pseudovirus in the same assay as above.
Description: as §1

| Binder | pseudovirus neutralization IC50 [mg/L] |
| --- | --- |
| B1 | > 10 |
| B2 | 0.0269 |
| B3 | 0.04 |
| B4 | 0.005 |
| B5 | 0.0431 |
| B6 | 0.017 |
| B7 | > 10 |
